Pooled drug test results. Numbers come from NIAID ChemDB, via PubChem.

Shared fields: tests in culture; species: HIV-1; endpoint: inhibition

Conditions beyond the fields shown may differ between rows. Percent inhibition refers to the dose given; in toxicity tests it is the harm to the cells. An empty or dashed field is not shown. a–b is a range or a potency band.

structure | cell line | strain or isolate | dose | read by | mutations | result
CCOP(=O)(CCCC(O)n1cc(N2C=CC(NC(C)=O)NC2=O)nn1)OCC | CEM | IIIB | 100 µM | - | - | 0%
Nc1nc(=O)n([C@@H]2CC[C@H](CO)O2)cc1F | MT-2 | IIIB | 0.4 µM | cytopathic effect / MTT | - | 36%
CC(C)c1cnc(C2C=C(c3cccc(F)c3)N=C(N)S2)cn1 | TZM-bl | NL4-3 | 10 µg/mL | p24 / ELISA / antigen | - | 74%
CC(C)CN(C[C@@H](O)[C@H](Cc1ccccc1)NC(=O)O[C@H]1CO[C@H]2OCC[C@H]21)S(=O)(=O)c1ccc2nc(NC3CCN(C4CCCC4)CC3)sc2c1 | PBMC | LAI | 7 nM | p24 | - | 90%
N#Cc1cc(Cl)cc(Oc2c(Cl)ccc3c2cnn3Cc2[nH]nc3nc(N)ccc23)c1 | MT-4 | - | 0.0097 µM | - | K103N | >95%
CC(=O)N(O)CCCCCNC(=O)CCC(=O)N(O)CCCCCNC(=O)CCC(=O)N(O)CCCCCN | H9 | IIIB | 20 µM | p24 | - | 70%
O=c1ccn(-c2cn(CP(=O)(O)O)nn2)c(=O)[nH]1 | CEM | IIIB | 100 µM | - | - | 0%
CC(C)CN(C[C@@H](O)[C@H](Cc1ccccc1)NC(=O)[C@@H](NC(=O)CNC(C)(C)c1cccc(F)c1)C(C)C)S(=O)(=O)c1ccc(N)cc1 | MT-2 | RF | 90 µM | - | - | <1%
O=C1[C@@H](Cc2ccccc2)NC(=S)N1Cc1ccccc1 | MT-4 | - | 10 µg/mL | RT activity | - | 9%
CC(=O)O[C@H]1CC[C@@H](O)CC[C@@H](C)/C=C/[C@@]2(C)CC[C@@H](C(C)(C)OC(C)=O)[C@H]12 | MT-2 | - | 6.25 µM | cytopathic effect / MTT | - | 83%
O=C1[C@@H](c2ccccc2)NC(=S)N1c1ccccc1 | MT-4 | - | 10 µg/mL | cytopathic effect / XTT | - | 0%
N=C1Sc2ccccc2C2=NCCCN12 | TZM-bl | 92TH006 | 7.8 µM | β-galactosidase | - | 90%
O=C(NCCc1ccccc1)Nc1nc2c(Cl)cccc2s1 | MT-4 | - | 10 µg/mL | RT activity | - | 8%
C=C(C)[C@@H]1CC[C@]2(C(=O)NCCCCCCCC(=O)N[C@@H](CC(C)C)[C@@H](O)CC(=O)O)CC[C@]3(C)[C@H](CC[C@@H]4[C@@]5(C)CC[C@H](O)C(C)(C)[C@@H]5CC[C@]43C)[C@@H]12 | HeLa P4 + HeLa | LAI-R(GP41-R22A) | 10 µM | syncytia | R22A | >99%
Cc1cccc(C2=CC(c3cnc(C(C)C)cn3)SC(N)=N2)c1 | TZM-bl | NL4-3 | 10 µg/mL | p24 / ELISA / antigen | - | 25%
Cc1ccc(-c2ccc3c(c2)C=C(C(=O)Nc2ccc(C[N+](C)(C)C4CCOCC4)cc2)CCC3)cc1 | PBMC | Du204 CLADE C | 1 µM | p24 | - | 97.6%
CC(C)c1cnc(C2C=C(c3ccc(O)cc3)N=C(N)S2)cn1 | TZM-bl | NL4-3 | 10 µg/mL | p24 / ELISA / antigen | - | 55%
O=C(O)CCC(CCC(=O)O)(CCC(=O)O)NC(=O)CCC(CCC(=O)NC(CCC(=O)O)(CCC(=O)O)CCC(=O)O)(CCC(=O)NC(CCC(=O)O)(CCC(=O)O)CCC(=O)O)NC(=O)CCCOC(=O)C1(C(=O)OCCCC(=O)NC(CCC(=O)NC(CCC(=O)O)(CCC(=O)O)CCC(=O)O)(CCC(=O)NC(CCC(=O)O)(CCC(=O)O)CCC(=O)O)CCC(=O)NC(CCC(=O)O)(CCC(=O)O)CCC(=O)O)C2c3cc4c5c6c3-c3c(cc7c8c3C6C3c6c-5c(cc5ccc9cc(c-8c3c9c65)C7)C4)C21 | PBMC | - | 2.75 µM | cytopathic effect | AZT-resistant (RT 215/41) | 90%
CC1(c2nc3ccccc3[nH]2)CCC(C(=O)O)C(C)(C)O1 | CEM + CEM-SS | RF | 200 µM | - | - | 18.8%
O=C1NC(SC(SC2=NNC3(C(=O)N2)c2ccccc2-c2ccccc23)=C(SC2=NNC3(C(=O)N2)c2ccccc2-c2ccccc23)SC2=NNC3(C(=O)N2)c2ccccc2-c2ccccc23)=NNC12c1ccccc1-c1ccccc12 | CEM | RF | 63 µM | cytopathic effect / XTT | - | 37.76%
Cc1cn([C@H]2C[C@H](N=[N+]=[N-])[C@@H](CCO)O2)c(=O)[nH]c1=O | MT-4 | IIIB | 200 µg/mL | cytopathic effect / trypan blue | - | 0%
N[C@H]1CONC1=O | CEM | N1T | 2.5 µg/mL | p24 | - | 68%
O=P(O)(O)OP(=O)(O)OP(=O)(O)OP(=O)(O)OP(=O)(O)OP(=O)(O)OP(=O)(O)OP(=O)(O)OP(=O)(O)OP(=O)(O)OP(=O)(O)OP(=O)(O)OP(=O)(O)OP(=O)(O)OP(=O)(O)O | H9 | IIIB | 100 µg/mL | RT activity | - | 38%
COc1cccc(C(C)(C)NCC(=O)N[C@H](C(=O)N[C@@H](Cc2ccccc2)[C@H](O)CN(CC(C)C)S(=O)(=O)c2ccc(N)cc2)C(C)(C)C)c1 | MT-2 | RF | 90 µM | - | - | <1%
C=C(C)[C@@H]1CC[C@]2(C(=O)NCCCCCCCC(=O)N[C@@H](CC(C)C)[C@@H](O)CC(=O)O)CC[C@]3(C)[C@H](CC[C@@H]4[C@@]5(C)CC[C@H](O)C(C)(C)[C@@H]5CC[C@]43C)[C@@H]12 | HeLa P4 + HeLa | LAI | 10 µM | syncytia | GP41-E109D A109D | >99%
O=C1N=C2SC=C(NC(=S)Nc3ccccc3)N2NC12c1ccccc1-c1ccccc12 | CEM | RF | 63 µM | cytopathic effect / XTT | - | 24.42%
O=C1NC(=S)N[C@@H]1Cc1ccccc1 | MT-4 | - | 0.1 µg/mL | cytopathic effect / XTT | - | 8%
S=C1NNC2(C(=S)N1)c1ccccc1-c1ccccc12 | CEM | RF | 0.63 µM | cytopathic effect / XTT | - | 10.22%
O=C(NCCc1ccccc1)Nc1nc(C(F)(F)F)cs1 | MT-4 | - | 1 µg/mL | cytopathic effect / XTT | - | 75–100%
Nc1ccn([C@H]2CC[C@@H](CO)O2)c(=O)n1 | CEM/1G5 T | NL4-3 | 1 µM | luciferase / cell fusion | - | 69%
C[C@H]1/C=C/[C@@]2(C)CC[C@@H](C(C)(C)O)[C@@H]2[C@@H](O)C[C@](C)(O)/C=C/C1 | MT-2 | - | 6.25 µM | cytopathic effect / MTT | - | 52%
CC1(c2nc3ccccc3[nH]2)CCC(CO)C(C)(C)O1 | CEM + CEM-SS | RF | 0.063 µM | - | - | 8.2%
O=C(CSC1=NNC2(C(=O)N1)c1ccccc1-c1ccccc12)NC(=S)Nc1ccccc1 | CEM | RF | 6.3 µM | cytopathic effect / XTT | - | 21.65%
N#Cc1cc(Cl)cc(Oc2c(Cl)ccc3c2ncn3Cc2[nH]nc3ncccc23)c1 | MT-4 | - | 0.066 µM | - | K103N | >95%
Cc1ccc(S(=O)(=O)N(CC(C)C)C[C@@H](O)[C@H](Cc2ccccc2)NC(=O)[C@@H](NC(=O)CNC(C)(C)c2cccc(F)c2)C(C)(C)C)cc1N | MT-2 | RF | 90 µM | - | - | <1%
N#Cc1cc(Cl)cc(Oc2cc(OCc3[nH]nc4ncccc34)ccc2Cl)c1 | MT-4 | - | 0.022 µM | - | Y181C | >95%
CC(C)CN(C[C@@H](O)[C@H](Cc1ccccc1)NC(=O)[C@@H](NC(=O)CNC(C)(C)c1ccc(F)cc1)C(C)(C)C)S(=O)(=O)c1ccc(N)cc1 | MT-2 | RF | 90 µM | - | - | <1%
CC(=O)NC1C=CN(c2cn(CCP(=O)(O)O)nn2)C(=O)N1 | CEM | IIIB | 100 µM | - | - | 0%
CC(C)CN(C[C@@H](O)[C@H](Cc1ccccc1)NC(=O)[C@@H](NC(=O)[C@@H](C)NC(C)(C)c1ccccc1)C(C)(C)C)S(=O)(=O)c1ccc(N)cc1 | MT-2 | RF | 90 µM | - | - | <1%
O=C(O)C(SC1=NNC2(C(=O)N1)c1ccccc1-c1ccccc12)SC1=NNC2(C(=O)N1)c1ccccc1-c1ccccc12 | CEM | RF | 20 µM | cytopathic effect / XTT | - | 36.96%
C[C@H]1[C@H](O)[C@@H](C)/C=C/C=C/C=C/C=C/C=C/C=C/C=C/[C@H](O[C@@H]2O[C@H](C)[C@@H](O)[C@H](N)[C@@H]2O)C[C@@H]2O[C@](O)(C[C@@H](O)C[C@@H](O)CC[C@H](O)[C@@H](O)C[C@@H](O)CC(=O)O[C@H]1C)C[C@H](O)[C@H]2C(=O)O | H9 | IIIB | 0.01 µg/mL | p24 / antigen | - | 29%
CC(C)CN(C[C@@H](O)[C@H](Cc1ccccc1)NC(=O)[C@@H](NC(=O)CNC(C)(C)c1cc(F)cc(F)c1)C(C)(C)C)S(=O)(=O)c1ccc(N)cc1 | MT-2 | RF | 90 µM | - | - | <1%
Cc1cn([C@H]2C[C@H](N=[N+]=[N-])C([C@H](O)CO)O2)c(=O)[nH]c1=O | MT-4 | IIIB | 200 µg/mL | cytopathic effect / trypan blue | - | 0%
Cc1ccc(C2=CC(c3cnc(C(C)C)cn3)SC(N)=N2)cc1 | TZM-bl | NL4-3 | 10 µg/mL | p24 / ELISA / antigen | - | 23%
CC(C)CN(C[C@@H](O)[C@H](Cc1ccccc1)NC(=O)[C@@H](NC(=O)CCNC(C)(C)c1ccccc1)C(C)(C)C)S(=O)(=O)c1ccc(N)cc1 | MT-2 | RF | 90 µM | - | - | <1%
Clc1cc2nc(C3CCCCO3)[nH]c2cc1Cl | CEM + CEM-SS | RF | 2 µM | - | - | 5.2%
S=C(NCCc1ccccc1)N1CCCc2ccccc21 | MT-4 | - | 0.1 µg/mL | cytopathic effect / XTT | - | 25%
Nc1ccn([C@H]2C=C[C@@H](CO)O2)c(=O)n1 | MT-4 | IIIB | 0.5 µM | antigen | - | 85%
O=C(NCCc1ccccc1)Nc1ccn[nH]1 | MT-4 | - | 10 µg/mL | cytopathic effect / XTT | - | 0%
C=CCNC(=O)NC1=CSC2=NC(=O)C3(NN12)c1ccccc1-c1ccccc13 | CEM | RF | 63 µM | cytopathic effect / XTT | - | 16.15%
NS(=O)(=O)c1ccc(NC(=O)NCCc2ccccc2)cc1 | MT-4 | - | 0.1 µg/mL | cytopathic effect / XTT | - | 3%
O=c1ccn(-c2cn(C(O)CP(=O)(O)O)nn2)c(=O)[nH]1 | CEM | IIIB | 100 µM | - | - | 0%
CC(C)c1cnn2c(NCc3ccc(-c4ccccn4)cc3)nc(N[C@H](CO)C(C)O)nc12 | U1 | - | 0.05 µM | trypan blue | - | 50%
Nc1ccn([C@@H]2CC[C@H](CO)O2)c(=O)n1 | MT-2 | IIIB | 1.2 µM | cytopathic effect / MTT | - | 17%
CC(C)CN(C[C@@H](O)[C@H](Cc1ccccc1)NC(=O)[C@@H](NC(=O)CNC(C)(C)c1cccc(F)c1)C(C)(C)C)S(=O)(=O)c1ccc(N)cc1 | MT-2 | RF | 90 µM | - | - | <1%
CCOP(=O)(CC(O)n1cc(N2C=CC(NC(C)=O)NC2=O)nn1)OCC | - | IIIB | 100 µM | - | - | 0%

The last 8 rows once more:

| structure | cell line | strain or isolate | dose | read by | mutations | result |
|---|---|---|---|---|---|---|
| O=C(NCCc1ccccc1)Nc1ccn[nH]1 | MT-4 | - | 10 µg/mL | cytopathic effect / XTT | - | 0% |
| C=CCNC(=O)NC1=CSC2=NC(=O)C3(NN12)c1ccccc1-c1ccccc13 | CEM | RF | 63 µM | cytopathic effect / XTT | - | 16.15% |
| NS(=O)(=O)c1ccc(NC(=O)NCCc2ccccc2)cc1 | MT-4 | - | 0.1 µg/mL | cytopathic effect / XTT | - | 3% |
| O=c1ccn(-c2cn(C(O)CP(=O)(O)O)nn2)c(=O)[nH]1 | CEM | IIIB | 100 µM | - | - | 0% |
| CC(C)c1cnn2c(NCc3ccc(-c4ccccn4)cc3)nc(N[C@H](CO)C(C)O)nc12 | U1 | - | 0.05 µM | trypan blue | - | 50% |
| Nc1ccn([C@@H]2CC[C@H](CO)O2)c(=O)n1 | MT-2 | IIIB | 1.2 µM | cytopathic effect / MTT | - | 17% |
| CC(C)CN(C[C@@H](O)[C@H](Cc1ccccc1)NC(=O)[C@@H](NC(=O)CNC(C)(C)c1cccc(F)c1)C(C)(C)C)S(=O)(=O)c1ccc(N)cc1 | MT-2 | RF | 90 µM | - | - | <1% |
| CCOP(=O)(CC(O)n1cc(N2C=CC(NC(C)=O)NC2=O)nn1)OCC | - | IIIB | 100 µM | - | - | 0% |